A mixed list of measured activities; the numbers were collected in NIAID ChemDB.

Common to all: whole-cell or culture tests; species: Mycobacterium tuberculosis

Conditions beyond the fields shown may differ between rows. a–b is a range or a potency band. ECn is the concentration giving n% inhibition of infection, replication or growth. Blank or dashed fields: not listed here. Percent inhibition refers to the dose given; in toxicity tests it is the harm to the cells. MIC bound: limit read from a one-dose screen. MIC50, MIC90 and the like: level of inhibition, or share of isolates inhibited.

structure | strain or isolate | changes | cell line | read by | conditions | endpoint | dose | value
Cc1cccc(CSc2ccccn2)c1 | H37Rv | - | - | - | - | inhibition | 6.25 µg/mL | 0%
O=C(/C=C/c1ccccc1)c1ccccc1 | H37Rv | - | - | MTT | 14 d | MIC | - | 32 µg/mL
C=CCNC(=S)N=Nc1c(O)n(CN2CCOCC2)c2ccc(OC(F)(F)F)cc12 | H37Rv | - | - | broth dilution / resazurin | - | EC50 | - | 1.003 µg/mL
CC(=O)NC[C@H]1CN(c2ccc(N3CCOCC3)c(F)c2)C(=O)O1 | Clinical isolate BRF 27 | - | - | resazurin | - | MIC | - | 0.5 µg/mL
Cc1c([N+](=O)[O-])ncn1CC(O)COC[C@H]1O[C@@H]2OC(C)(C)O[C@@H]2[C@H]2OC(C)(C)O[C@H]21 | H37Rv | - | - | agar | - | MIC | - | 1.56 µg/mL
Cn1c(NNc2nc(Nc3cc(Cl)cc(Cl)c3)nc(Nc3cc(Cl)cc(Cl)c3)n2)nc(-c2ccccc2)c(C#N)c1=O | H37Rv | - | VERO | - | - | MIC | - | >12.5 µg/mL
O=C1c2cc(Cl)nnc2Oc2ccc(Cl)cc2N1CC1CCCCC1 | H37Rv | - | - | BACTEC | - | EC50 | - | <12.5 µg/mL
O=C(CCC(=O)c1ccccc1)NC[C@H]1CN(c2ccc(-n3cncn3)c(F)c2)C(=O)O1 | 10 clinical isolates resistant | - | - | - | - | MIC | - | 1–2 µg/mL
O=[N+]([O-])c1cn2c(n1)OC[C@@H](OCc1ccc(OCc3ccccc3)cc1)C2 | H37Rv | - | - | - | - | MIC | - | 0.1–0.2 µM
Cc1cccc(CSc2nc(=O)[nH]c3nc[nH]c23)c1 | H37Ra | - | - | - | - | MIC | - | >12.8 µg/mL
Nc1cc(C(=O)O)ccc1SSc1ccc(C(=O)O)cc1N | H37Rv | - | - | BACTEC | - | inhibition | 6.25 µg/mL | 0%
COc1ccccc1Nc1nc(NNc2nc(-c3ccc(Cl)cc3)c(C#N)c(=O)n2C)nc(Nc2ccccc2OC)n1 | H37Rv | - | - | - | - | EC50 | - | >12.5 µg/mL
CC(=O)Oc1ccccc1C(=O)Nc1ncc([N+](=O)[O-])s1 | T spoligotype 53 | - | - | visual reading | - | MIC | - | 18.7 µg/mL
O=C1c2cc(Cl)nnc2Oc2ccc3ccccc3c2N1CC1CCCCC1 | H37Rv | - | - | BACTEC | - | inhibition | 12.5 µg/mL | 37%
CC1(C)O[C@H]2[C@@H](O1)[C@@H](Cn1ccnc1[N+](=O)[O-])O[C@@H]1OC(C)(C)O[C@@H]12 | H37Rv | - | - | agar | - | MIC | - | 6.25 µg/mL
Cc1ccc(NC2=CC(=O)C(=O)c3ccccc32)cc1 | H37Rv | - | VERO | resazurin | - | MIC | - | ≤0.1 µg/mL
O=c1nc(SCc2ccccn2)c2[nH]cnc2[nH]1 | H37Ra | - | - | - | - | MIC | - | >12.8 µg/mL
COc1ccc(C(=O)/C=C/c2ccccc2Cl)c(F)c1 | H37Rv | - | - | resazurin | 7 d | MIC | - | 32 µg/mL
CN(C)CCOCCOC(=O)N1c2ccccc2Sc2ccccc21.Cl | H37Rv | - | - | BACTEC | - | inhibition | 12.5 µg/mL | 12%
Oc1c(N=NC(=S)Nc2ccc(Cl)cc2)c2cc(OC(F)(F)F)ccc2n1CN1CCOCC1 | H37Rv | - | - | broth dilution / resazurin | - | EC90 | - | 3.041 µg/mL
CO[C@H]1/C=C/O[C@@]2(C)Oc3c(C)c(O)c4c(O)c(c(/C=N/N5CCN(C)CC5)c(O)c4c3C2=O)NC(=O)/C(C)=C\C=C\[C@H](C)[C@H](O)[C@@H](C)[C@@H](O)[C@@H](C)[C@H](OC(C)=O)[C@@H]1C | H37Rv (viomycin-resistant) | - | - | - | - | MIC | - | 2.5 µg/mL
CCCCCCCCN1C(=O)c2cc(Cl)nnc2Oc2ccc(Cl)cc21 | H37Rv | - | - | BACTEC | - | EC50 | - | 12.5 µg/mL
Cc1nc([N+](=O)[O-])cn1C[C@H]1O[C@@H]2OC(C)(C)O[C@@H]2[C@H]2OC(C)(C)O[C@H]21 | H37Rv | - | - | agar | - | MIC | - | >12.5 µg/mL
COc1ccc(C(=O)/C=C/c2ccc(F)cc2)cc1F | H37Rv | - | - | MTT | - | MIC | - | 64 µg/mL
COc1cc(OC)cc(-n2c(N)c(-c3nc4ccccc4n3C)c3ccc([N+](=O)[O-])cc3c2=O)c1 | H37Rv | - | - | BACTEC | - | MIC bound | - | >6.25 µg/mL
Cn1c(NNc2nc(Nc3cccc(Cl)c3)nc(Nc3cccc(Cl)c3)n2)nc(-c2ccccc2)c(C#N)c1=O | H37Rv | - | VERO | - | - | inhibition | 12.5 µg/mL | 92%
O=C(/C=C/c1ccccc1)c1ccc(O)cc1 | H37Rv | - | - | resazurin | 21 d | MIC | - | 32 µg/mL
CO[C@H]1/C=C/O[C@@]2(C)Oc3c(C)c(O)c4c(O)c(c(/C=N/N5CCN(C)CC5)c(O)c4c3C2=O)NC(=O)/C(C)=C\C=C\[C@H](C)[C@H](O)[C@@H](C)[C@@H](O)[C@@H](C)[C@H](OC(C)=O)[C@@H]1C | FJ05349 | Clinically sensitive strain | - | resazurin | - | MIC | - | 0.5 µg/mL
COc1ccccc1CSc1nc(=O)[nH]c2nc[nH]c12 | H37Rv | - | - | - | - | inhibition | 6.25 µg/mL | 0%
CO[C@H]1/C=C/O[C@@]2(C)Oc3c(C)c(O)c4c(=O)c(c5oc6cc(N7CCN(CC(C)C)CC7)cc(=O)c6nc5c4c3=C2O)NC(=O)/C(C)=C\C=C\[C@H](C)[C@H](O)[C@@H](C)[C@@H](O)[C@@H](C)[C@H](OC(C)=O)[C@@H]1C | 28 (streptomycin-resistant) | - | - | - | - | MIC | - | 0.0078 µg/mL
CCN(CC)CCCN(C)Cc1c(-c2ccccc2)oc(-c2ccccc2)c1Cl.Cl.Cl | H37Rv | - | - | BACTEC | - | inhibition | 12.5 µg/mL | 100%
CCOC(=O)c1cn(C)c2c(cc([N+](=O)[O-])c3cccnc32)c1=O | H37Rv | gyrA mutation G88C | - | - | - | MIC90 | - | >50 µM
Cc1nc([N+](=O)[O-])cn1CC(O)COC[C@H]1O[C@@H]2OC(C)(C)O[C@@H]2[C@H]2OC(C)(C)O[C@H]21 | H37Rv | - | - | agar | - | MIC | - | >12.5 µg/mL
O=c1nc(SCc2ccc(F)cc2)c2[nH]cnc2[nH]1 | H37Ra | - | - | - | - | MIC | - | >12.8 µg/mL
O=C(ON=C1C=CC(=NOC(=O)c2ccccc2)C=C1)c1ccccc1 | H37Rv | - | - | BACTEC | - | inhibition | 12.5 µg/mL | 1%
Cc1ccc2[nH]c(O)c(N=NC(=S)NCc3ccccc3)c2c1 | H37Rv | - | - | broth dilution / resazurin | - | EC50 | - | 14.9 µg/mL
CCOC(=O)c1cn(CC)c2c(cc([N+](=O)[O-])c3cccnc32)c1=O | H37Rv | gyrA mutation S91P | - | - | - | MIC90 | - | >50 µM
C=C1C(=O)N2c3ccccc3C(C)(C)C2(S)C(=O)N1C | H37Rv | - | - | resazurin | - | MIC bound | - | <6.25 µg/mL
Cc1c([N+](=O)[O-])ncn1C[C@H]1O[C@@H]2OC(C)(C)O[C@@H]2[C@H]2OC(C)(C)O[C@H]21 | H37Rv | - | - | agar | - | MIC | - | 3.13 µg/mL
Cc1cccc(C)c1Sc1ncnc2nc[nH]c12 | H37Ra | - | - | - | - | MIC | - | >12.8 µg/mL
Cc1ccc(C(=S)CCC(=O)NC[C@H]2CN(c3ccc(N4CCOCC4)c(F)c3)C(=O)O2)cc1 | 10 clinical isolates sensitive | - | - | - | - | MIC | - | >16 µg/mL
O=C(/C=C/c1c(F)cccc1Cl)c1ccccc1 | H37Rv | - | - | MTT | 21 d | MIC | - | 16 µg/mL
COc1nc2ccc(Br)cc2cc1[C@@H](c1ccccc1)[C@@](O)(CCN(C)C)c1cccc2ccccc12 | clinical isolate MAL020139 | - | - | resazurin | - | MIC90 | - | 0.03125 µg/mL
O=C(Nc1cccc2c1Oc1ccccc1O2)C(F)(F)F | H37Rv | - | - | resazurin | - | MIC bound | - | >6.25 µg/mL
Cc1ccc(C(=O)/C=C/c2ccccc2)cc1 | H37Rv | - | - | resazurin | 7 d | MIC | - | 32 µg/mL
CN1C2=[C](CC(Br)=CC2)[Sn]2([C]3=C(CC=C(Br)C3)N(C)c3ccc(Br)c[c]32)[c]2cc(Br)ccc21 | H37Rv | - | - | BACTEC | - | MIC bound | - | >12.5 µg/mL
Oc1[nH]c2ccc(OC(F)(F)F)cc2c1N=NC(=S)Nc1ccc(Cl)cc1 | H37Rv | - | - | broth dilution / resazurin | - | EC50 | - | 1.259 µg/mL
CC(C)(C)c1ccc(C(=O)CCC(=O)NC[C@H]2CN(c3ccc(N4CCOCC4)c(F)c3)C(=O)O2)cc1 | ATCC 27294 | - | - | - | - | MIC | - | 1 µg/mL
O=[N+]([O-])c1cn2c(n1)OC[C@@H](OCc1ccc(OC(F)(F)F)cc1)C2 | H37Rv-T2-3547 (PA-824-resistant) | - | - | - | - | MIC | - | 1.6 µM
Cc1nn(C(=S)S)c(C)c1N=Nc1ccccc1C(F)(F)F | H37Rv | - | - | resazurin | - | inhibition | 6.25 µg/mL | 82%
c1ccc(CSc2ncccn2)cc1 | H37Rv | - | - | - | - | MIC90 | - | >6.25 µg/mL
Cn1c(NNc2nc(Nc3ccc(F)c(Cl)c3)nc(Nc3ccc(F)c(Cl)c3)n2)nc(-c2ccccc2)c(C#N)c1=O | H37Rv | - | - | - | - | MIC | - | 12.5 µg/mL
N#Cc1ncc(C(Cl)(Cl)Cl)nc1Cl | H37Rv | - | - | BACTEC | - | MIC bound | - | ≤12.5 µg/mL
COc1ccccc1Nc1nc(NNc2nc(-c3ccccc3)c(C#N)c(=O)n2C)nc(Nc2ccccc2OC)n1 | H37Rv | - | - | - | - | EC50 | - | <12.5 µg/mL
CCCCCCCN1C(=O)c2cc(Cl)nnc2Oc2cc(C)ccc21 | H37Rv | - | - | BACTEC | - | EC50 | - | <12.5 µg/mL
Cc1ccc2c(c1)c(N=NC(=S)NCc1ccccc1)c(O)n2C | H37Rv | - | - | broth dilution / resazurin | - | EC90 | - | >100 µg/mL
O=[N+]([O-])c1ccc(-c2csc(Nc3ccccn3)n2)o1 | H37Rv | - | - | BACTEC | - | MIC | - | ≥12.5 µg/mL
Cc1ccc(C(=O)CCC(=O)NC[C@H]2CN(c3ccc(-[n+]4[nH]nc5ccccc54)c(F)c3)C(=O)O2)c(C)c1 | 10 clinical isolates resistant | - | - | - | - | MIC | - | >16 µg/mL
CC1(C)O[C@H]2[C@@H](O1)[C@@H](COCC(Cn1cnc([N+](=O)[O-])c1)OCc1ccc(OC(F)(F)F)cc1)O[C@@H]1OC(C)(C)O[C@@H]12 | H37Rv | - | - | agar | - | MIC | - | 3.13 µg/mL
CO[C@H]1/C=C/O[C@@]2(C)Oc3c(C)c(O)c4c(=O)c(c5oc6cc(N7CCN(CC(C)C)CC7)cc(=O)c6nc5c4c3=C2O)NC(=O)/C(C)=C\C=C\[C@H](C)[C@H](O)[C@@H](C)[C@@H](O)[C@@H](C)[C@H](OC(C)=O)[C@@H]1C | Kurata | - | - | - | inside macrophages | inhibition | 5 µg/mL | 87.6%
O=C(/C=C/c1ccc(F)cc1)c1ccc(O)cc1 | H37Rv | - | - | MTT | 14 d | MIC | - | 32 µg/mL
O=C(O)CN1CSC(=S)N(CC(=O)O)C1 | H37Rv | - | - | BACTEC | - | inhibition | 12.5 µg/mL | 6%
Cn1c(O)c(N=NC(=S)Nc2ccc(Cl)cc2)c2cc(OC(F)(F)F)ccc21 | H37Rv | - | - | broth dilution / resazurin | - | EC90 | - | >100 µg/mL
CC1(O)/C=C\C=C(\CO)C2CC(C)(C)C2(O)CC1 | H37Rv | - | - | BACTEC | - | inhibition | 12.5 µg/mL | 14%
O=C(/C=C/c1c(F)cccc1Cl)c1ccc(F)cc1 | H37Rv | - | - | resazurin | 7 d | MIC | - | 64 µg/mL
NC(=S)N/N=C/c1cn(Cc2ccccc2)c2ccccc12 | H37Rv | - | - | resazurin | - | inhibition | 6.25 µg/mL | 91%
C[C@H]1COc2c(N3CCN(C)CC3)c(F)cc3c(=O)c(C(=O)O)cn1c23 | H37RV (DRUG-SUS) | - | - | - | - | MBC | - | 2 µg/mL
O=[N+]([O-])c1ccc(N=Nc2c(Cl)c(O)c3ccccc3c2O)nc1 | PZA-R | - | - | - | - | MIC | - | >12.5 µg/mL
NNC(=O)c1ccncc1 | Strep-r | - | - | resazurin | - | MIC | - | 50–100 µg/mL
CCOC(=O)NC(C(=O)OCC)(N1CCN(c2cc3c(cc2F)c(=O)c(C(=O)O)cn3CC)CC1)C(F)(F)F | H37Rv | - | - | resazurin | - | MIC bound | - | <6.25 µg/mL
Cn1c(NNc2nc(Nc3ccc(F)c(Cl)c3)nc(Nc3ccc(F)c(Cl)c3)n2)nc(-c2ccc(Cl)cc2)c(C#N)c1=O | H37Rv | - | VERO | - | - | EC50 | - | <12.5 µg/mL
Cc1ccc(C)c(Sc2ncnc3nc[nH]c23)c1 | H37Rv | - | - | - | - | MIC90 | - | >12.5 µg/mL
C[n+]1cccc(C(=O)NN)c1.Cc1ccc(S(=O)(=O)[O-])cc1 | H37Rv | - | - | BACTEC | - | MIC | - | ≥12.5 µg/mL
CCCCCCCCCCCCCCCOC(COC[C@H]1O[C@@H]2OC(C)(C)O[C@@H]2[C@H]2OC(C)(C)O[C@H]21)Cn1cc([N+](=O)[O-])nc1C | H37Rv | - | - | agar | - | MIC | - | 3.13 µg/mL
CCO/N=C(/NC(=O)NC(=O)/C(=N/OCC)c1ccccc1)c1ccccc1 | H37Rv | - | - | BACTEC | - | inhibition | 12.5 µg/mL | 27%
Cn1c(NNc2nc(Nc3ccc(Cl)cc3)nc(Nc3ccc(Cl)cc3)n2)nc(-c2ccccc2)c(C#N)c1=O | H37Rv | - | - | - | - | EC50 | - | >12.5 µg/mL
CCOC(=O)C(=O)N=Nc1nc2c(O)c3ccccc3c(O)c2s1 | H37Rv | - | - | BACTEC | - | MIC bound | - | ≤12.5 µg/mL
CC1(C)O[C@H]2[C@@H](O1)[C@@H](COCC(O)Cn1ccnc1[N+](=O)[O-])O[C@@H]1OC(C)(C)O[C@@H]12 | H37Rv | - | - | agar | - | MIC | - | 1.56 µg/mL